Pooled drug test results. Numbers come from NIAID ChemDB, via PubChem.

Shared fields: whole-cell or culture tests; organism: HIV-1; read by: p24; measure: fold resistance

Fold resistance has wild type as its base.

SMILES,cell line,changes,strain,value
Nc1ccn([C@H]2CC[C@@H](CO)O2)c(=O)n1,MT-2,RT-delta67 K103N,-,5.2
Cc1cn([C@H]2C[C@H](N=[N+]=[N-])[C@@H](CO)O2)c(=O)[nH]c1=O,PBMC,RT-A62V,Recombinant,0
Nc1ccn([C@@H]2CO[C@H](CO)S2)c(=O)n1,C8166,RT-M41L L74V V106A T215Y,HXB2,2.67
CC(C)OC(=O)OCOP(=O)(CO[C@H](C)Cn1cnc2c(N)ncnc21)OCOC(=O)OC(C)C,MT-2,RT-D67N K70R T215Y K219Q,G691-2 AZT-resistant (RT D67N K70R T215Y K219Q),0.142
Nc1ncnc2c1ncn2CCOCP(=O)(O)O,MT-2,RT-P119S V179D L214F,RT P119S V179D L214F,1.2
Nc1ncnc2c1ncn2CCOCP(=O)(O)O,C8166,RT-K65R,RF,4.44
CC(C)CN(C[C@@H](O)[C@H](Cc1ccccc1)NC(=O)[C@H](CC(N)=O)NC(=O)c1ccc2ccccc2n1)C(=O)NC(C)(C)C,MT-4,PR-L10R M46I,NL4-3,1
Cc1cn([C@H]2C=C[C@@H](CO)O2)c(=O)[nH]c1=O,MT-2,RT-K103N,-,3.6
CC(C)(C)NC(=O)[C@@H]1C[C@@H]2CCCC[C@@H]2CN1C[C@@H](O)[C@H](Cc1ccccc1)NC(=O)[C@H](CC(N)=O)NC(=O)c1ccc2ccccc2n1,MT-4,PR-L10R M46I V82T,NL4-3,1
O=c1[nH]cnc2c1ncn2[C@H]1CC[C@@H](CO)O1,MT-2,RT-K65R,K65R(RT-K65R),6.6
O=c1[nH]cnc2c1ncn2[C@H]1CC[C@@H](CO)O1,MT-4,RT-M184V,IIIB BCH-189-resistant (RT M184V),3.68
Nc1ncnc2c1ncn2[C@@H]1O[C@H](CO)C[C@@H]1F,MT-2,RT-M184V,M184V(RT-M184V),0.9
Nc1ccn([C@@H]2CS[C@H](CO)O2)c(=O)n1,PBMC,RT-M184V,Recombinant,2.5
CC(C)CN(C[C@@H](O)[C@H](Cc1ccccc1)NC(=O)O[C@H]1CCOC1)S(=O)(=O)c1ccc(N)cc1,MT-4,PR-D30N M46I A71V,NL4-3,0.5
CCc1cc(NCc2nc3c(Cl)ccc(Cl)c3o2)c(=O)[nH]c1C,MT-4,RT-K103N,NL4-3,8

A second listing of 2 rows from above:

SMILES,cell line,changes,strain,value
CC(C)CN(C[C@@H](O)[C@H](Cc1ccccc1)NC(=O)[C@H](CC(N)=O)NC(=O)c1ccc2ccccc2n1)C(=O)NC(C)(C)C,MT-4,PR-L10R M46I,NL4-3,1
CC(C)CN(C[C@@H](O)[C@H](Cc1ccccc1)NC(=O)O[C@H]1CCOC1)S(=O)(=O)c1ccc(N)cc1,MT-4,PR-D30N M46I A71V,NL4-3,0.5

Blank or dashed fields: not listed here. Neighbouring rows are from separate reports.